Reference: patent US20040198716A1, “Cysteine protease inhimbitors” (priority 2001, published 2004)

Sequences of proteins named here, by UniProt entry; tags and fusion partners are left off. Residues count along the entry.
UniProt P23008, 1515-1697 limits assumed: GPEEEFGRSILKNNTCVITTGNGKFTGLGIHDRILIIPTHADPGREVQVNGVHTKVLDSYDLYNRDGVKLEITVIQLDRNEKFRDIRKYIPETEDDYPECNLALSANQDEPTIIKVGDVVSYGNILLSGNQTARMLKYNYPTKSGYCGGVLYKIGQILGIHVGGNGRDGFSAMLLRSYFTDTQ

Target: Human Rhinovirus serotype 1A 3C Protease (Human rhinovirus 1A, UniProt P23008)
Test: 3C Protease Biochemical Assay (FRET)
Details: 30° C., 2-6uM substrate, 416 nM 3CP
Experimental: Human Rhinovirus serotype 1A (ATCC) was used to clone the 3C Protease into the expression vector pET16-b and transformed for production into the E. coli strain BL21-DE3-pLys-S. 3C Protease expression was induced with 1 mM IPTG at 25° C. and purified from the soluble protein extract by chromatography on a SourceQ (Pharmacia) followed by gel filtration. HRV 3CP activity was measured by fluorescence resonance energy transfer using a dimodified decapeptide substrate MOC-[…]DNP-NH2 (7-methoxy coumarin-4-acetic acid fluorochrome and dinitrophenol quencher) with a Km value of 16.8 μM. Inhibition was measured as a change in initial velocity (V0) as a function of inhibitor (I) concentration and substrate (S) concentration. Assays were performed in 100 μL volumes in a 96 well format at 30° C. containing 25 mM Tris HCl pH 8.0, 150 mM NaCl, 1 mM EDTA pH 8.0, 6 mM DTT, 2-6uM substrate, 2% DMSO, 416 nM 3CP and inhibitor as needed. Fluorescence was monitored by excitation at 328 nm and emission at 393 nm with 10 nm cutoffs. Data were analyzed with the nonlinear regression analysis program EnzFitter (BioSoft) with the equation:
Ki=(I/((VmaxxS)/V0)/Ks)−I−S
Substrate concentrations used were lower than the Km of the substrate (16.8 uM) so no corrections for an S/Km term were used.

## CC1=CC(=O)c2c(O)cccc2C1=O
  Ki: 128 µM

## O=C1C(O)=C(C2=C(O)C(=O)c3ccccc3C2=O)C(=O)c2ccccc21
  Ki: 396 µM

## O=c1c(O)cccc2cc(O)c(O)c(O)c12
  Ki: 80 µM
